Experimental data published in PMC9637222, “Autoinducer-2 and bile salts induce c-di-GMP synthesis to repress the T3SS via a T3SS chaperone” (Nature Communications, 2022).
Where “and” joins values, the source holds several entries; their conditions need not be identical. Equal values may be shown once.

Tested on: SipB
Set-up: species or system S. Typhimurium
Settings: ITC binding stoichiometry n, individual replicates, Supplementary Figure 19a
Description: ITC measurements were carried out at 20 °C with a Nano ITC Standard Volume isothermal calorimeter (TA Instruments, New Castle, DE) controlled by the ITCRun software. The N-terminal His6 tags of all purified proteins were removed before ITC analysis. For titrations with DPD/AI-2 (Omm Scientific), the tag-free proteins were dialyzed against a Tris buffer (25 mM Tris-HCl, 150 mM NaCl, pH 7.5) and diluted to 70 μM, while DPD/AI-2 was diluted with the same buffer to 700 μM. […] After being degassed, 1 ml of the protein and 250 μl of the ligand solution were added to the sample cell and the syringe, respectively. There were 25 injections per experiment and the stirring speed was 200 rpm. In control experiments, the ligand solution was titrated into the buffer in the sample cell to obtain the heat of dilution. Microcalorimetric data were corrected by subtracting the heats of dilution and fit to the independent binding site model using the NanoAnalyze software.
Supplementary Fig. 19 Isotherms representing binding of SicA and its variants with InvF, SipB and SipC as measured by ITC
ITC data and plots of injected heat for 25 automatic injections of 100 μM SicA (a, d, f),SicAK27A (b) or SicAN70A (c, e, g) into the sample cellcontaining 10 μM SipB (a-c), InvF (d, e), or SipC (f,g) are shown inthe upper and lower plots, respectively. […]

## SicA
  n, SicA binding to SipB: 1.08 and 1.16 and 1.05
